Experimental data published in article PMC3334918, “Mutagenesis and Functional Studies with Succinate Dehydrogenase Inhibitors in the Wheat Pathogen Mycosphaerella graminicola” (PLoS ONE, 2012).

Experiments:
Assay in all cases: in vitro succinate: Q0/DCPIP activity test, purified mitochondria
Assay type in all cases: biochemical, Mycosphaerella graminicola
[1] = system: SDH B_H267L (strain Cbx29); settings: ratio IC50mutant/IC50WT, single determination
Protocol: (§1) To explore the sensitivity profiles conferred by amino acid substitutions at the cellular and mitochondrial level, we determined sensitivity towards 4 different compounds for 26 of the identified substitution types both in vivo using liquid culture growth (AE media) and in vitro using purified mitochondria and the succinate: Q0/DCPIP activity test (Table 3). […] Resistance factors (RF) were determined as the ratio IC50mutant/IC50WT. […] Qp site mutations are well known to influence SDH enzyme activity and stability upon catalysis, [13], [38], [41].
(§2) Strains were grown in 1 liter TSM40 units. Cultures were inoculated at 0.05 OD600 nm and grown on a reciprocal shaker (110 rpm, 22°C) for 5 days. Cells were harvested by vacuum filtration and disrupted in liquid nitrogen using a mortar and pestle. Resultant powder was re-suspended to 10% w/v in mitochondrial extraction buffer (10 mM KHPO4 pH7.2; 10 mM KCl, 10 mM MgCl2, 0.5 M sucrose, 0.2 mM EDTA, 2 mM PMSF). Extract was clarified by centrifugation (5,000 g, 4°C for 10 minutes, 2 times), intact mitochondria were then pelleted at 10,000 g for 20 minutes at 4°C. […] This volume was transferred to conical 1.5 ml tubes and re-centrifuged, 10,000 g for 10 minutes at 4°C. […] Mitochondrial suspensions were brought to a final concentration of 10 mg ml^−1 in extraction buffer and stored at −80°C until used.
(§3) Mitochondrial suspensions were incubated at 30°C for 30 minutes in extraction buffer supplemented with 10 mM succinate prior to enzymatic measurements.
(§4) A reaction plate was equilibrated for 10 minutes at 30°C before starting the reaction. DCPIP reduction was conducted at 30°C and monitored at 595 nm using a HTS7000 microtiterplate reader (Perkin Elmer). For calculations a molecular extinction coefficient of ε = 17 mM^−1 cm^−1 was used.
(§5) Inhibitor concentrations ranged between 1 mM and 0.95 nM with uniform 4× dilution factor steps (11 inhibitor concentrations+DMSO control). 96 wells plates were pre equilibrated at reaction temperature (30°C) for 10 minutes before the reactions were started by the addition of 5 µl preactivated M. graminicola mitochondrial suspension. Calculated absorbance slopes (OD/hour) were used for IC50 calculations using Graphpad Prism 5.0 software non linear curve fitting against log inhibitor concentrations.

[2] = system: SDH B_H267N (strain Cbx96); settings: ratio IC50mutant/IC50WT, single determination
Protocol: as §1, §2, §3, §4, §5

[3] = system: SDH B_H267Q (strain Bos59); settings: ratio IC50mutant/IC50WT, single determination
Protocol: as §1, §2, §3, §4, §5

[4] = system: SDH B_H267Y (strain Cbx28); settings: ratio IC50mutant/IC50WT, single determination
Protocol: as §1, §2, §3, §4, §5

[5] = system: SDH B_I269V (strain Cbx1); settings: ratio IC50mutant/IC50WT, single determination
Protocol: as §1, §2, §3, §4, §5

[6] = system: SDH B_N225H (strain Cbx106); settings: ratio IC50mutant/IC50WT, single determination
Protocol: as §1, §2, §3, §4, §5

[7] = system: SDH B_N225I (strain Flu7); settings: ratio IC50mutant/IC50WT, single determination
Protocol: as §1, §2, §3, §4, §5

[8] = system: SDH B_N271K (strain Flu33); settings: ratio IC50mutant/IC50WT, single determination
Protocol: as §1, §2, §3, §4, §5

[9] = system: SDH B_P220L (strain Flu75); settings: ratio IC50mutant/IC50WT, single determination
Protocol: as §1, §2, §3, §4, §5

[10] = system: SDH B_P220T (strain Flu110); settings: ratio IC50mutant/IC50WT, single determination
Protocol: as §1, §2, §3, §4, §5

[11] = system: SDH B_R265P (strain Cbx56); settings: ratio IC50mutant/IC50WT, single determination
Protocol: as §1, §2, §3, §4, §5

[12] = system: SDH B_S218F (strain Flu41); settings: ratio IC50mutant/IC50WT, single determination
Protocol: as §1, §2, §3, §4, §5

[13] = system: SDH C_A84I (strain Flu21); settings: ratio IC50mutant/IC50WT, single determination
Protocol: as §1, §2, §3, §4, §5

SDH C_A84V (strain Flu4) = settings: ratio IC50mutant/IC50WT, single determination
Protocol: as §1, §2, §3, §4, §5

[14] = system: SDH C_H152R (strain Izm1); settings: ratio IC50mutant/IC50WT, single determination
Protocol: as §1, §2, §3, §4, §5

[15] = system: SDH C_L85P (strain Cbx12); settings: ratio IC50mutant/IC50WT, single determination
Protocol: as §1, §2, §3, §4, §5

SDH C_N86K (strain Izm7) = settings: ratio IC50mutant/IC50WT, single determination
Protocol: as §1, §2, §3, §4, §5

SDH C_S83G (strain Flu1) = settings: ratio IC50mutant/IC50WT, single determination
Protocol: as §1, §2, §3, §4, §5

[16] = system: SDH C_T79I (strain Bos64); settings: ratio IC50mutant/IC50WT, single determination
Protocol: as §1, §2, §3, §4, §5

SDH C_V88D (strain Ol50) = settings: ratio IC50mutant/IC50WT, single determination
Protocol: as §1, §2, §3, §4, §5

[17] = system: SDH D_D129E (strain Cbx22); settings: ratio IC50mutant/IC50WT, single determination
Protocol: as §1, §2, §3, §4, §5

[18] = system: SDH D_D129G (strain Cbx67); settings: ratio IC50mutant/IC50WT, single determination
Protocol: as §1, §2, §3, §4, §5

[19] = system: SDH D_D129S (strain Cbx101); settings: ratio IC50mutant/IC50WT, single determination
Protocol: as §1, §2, §3, §4, §5

[20] = system: SDH D_D129T (strain Flu29); settings: ratio IC50mutant/IC50WT, single determination, FR** (full resistance) = no sufficient inhibition detected at highest inhibitor concentration tested
Protocol: as §1, §2, §3, §4, §5

Structure (SMILES) | Resistance Factors (RFs) in vitro [1] | Resistance Factors (RFs) in vitro [2] | Resistance Factors (RFs) in vitro [3] | Resistance Factors (RFs) in vitro [4] | Resistance Factors (RFs) in vitro [5] | Resistance Factors (RFs) in vitro [6] | Resistance Factors (RFs) in vitro [7] | Resistance Factors (RFs) in vitro [8] | Resistance Factors (RFs) in vitro [9] | Resistance Factors (RFs) in vitro [10] | Resistance Factors (RFs) in vitro [11] | Resistance Factors (RFs) in vitro [12] | Resistance Factors (RFs) in vitro [13] | Resistance Factors (RFs) in vitro (SDH C_A84V (strain Flu4)) | Resistance Factors (RFs) in vitro [14] | Resistance Factors (RFs) in vitro [15] | Resistance Factors (RFs) in vitro (SDH C_N86K (strain Izm7)) | Resistance Factors (RFs) in vitro (SDH C_S83G (strain Flu1)) | Resistance Factors (RFs) in vitro [16] | Resistance Factors (RFs) in vitro (SDH C_V88D (strain Ol50)) | further results
O=C(Nc1ccccc1-c1ccc(Cl)cc1)c1cccnc1Cl [Boscalid] | 9126.6 | 34.8 | 1034.3 | 473.8 | 12.7 | 20.1 | 18.5 | 223.7 | 2.6 | 28 and 28.3 | 256.0 | 46.3 | 4.4 | 3.7 | 58.1 | 34.7 | 160.2 | 1392.4 | 145.6 | 59.8 | Resistance Factors (RFs) in vitro [17]: 1220.9; Resistance Factors (RFs) in vitro [18]: 2052.4; Resistance Factors (RFs) in vitro [19]: 341.2; Resistance Factors (RFs) in vitro [20]: 5515.8
CC1=C(C(=O)Nc2ccccc2)SCCO1 [Carboxin] | 1959.3 | 232.7 | 85.5 | 65.9 | 19.9 | 38.0 | 6.9 | 1069.2 | 4.4 | 0.7 | 271.1 | 46.4 | 1.8 | 1.2 | 45.4 | 265.4 | 135.9 | 11.7 | 62.0 | 67.2 | Resistance Factors (RFs) in vitro [17]: 631.6; Resistance Factors (RFs) in vitro [18]: 2030.3; Resistance Factors (RFs) in vitro [19]: 377.7; Resistance Factors (RFs) in vitro [20]: FR**
O=C(NCCc1ncc(C(F)(F)F)cc1Cl)c1ccccc1C(F)(F)F [Fluopyram] | 766.1 | 68.3 | 11.8 | 5.1 | 18.0 | 15.2 | 25.0 | 2481.0 | 3.3 | 85 and 84.9 | 63.0 | 276.5 | 260.0 | 102.7 | 14.3 | 130.1 | 245.8 | 201.0 | 12.3 | 55.4 | Resistance Factors (RFs) in vitro [17]: 10.5; Resistance Factors (RFs) in vitro [18]: 1880.2; Resistance Factors (RFs) in vitro [19]: 12.3; Resistance Factors (RFs) in vitro [20]: 3724.4

Several values for one entry are separate records, joined by “and”; a condition that tells them apart may be missing. Equal values may be shown once.
